Measurements reported in PubChem BioAssay AID504761 (Drosophila RNAi Screening Center, 2011)
Purpose: 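Fly genes whose silencing reduces dengue virus type 2 infection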 (primary screen). Cells: D.Mel-2 cells from Drosophila. Reagents: long dsRNA against Drosophila genes. Treatment: infection with dengue virus type 2; dose and infection time not stated. Read-out: 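Per well on two replicate plates, imaging gave the percent of cells positive for viral envelope protein, ranked by infection, and a nuclear count of cells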. Scale: infection score: higher = more virus-infected cells; cell count: higher = more cells in the well. Call rule: 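Very low infection ranking in both replicate wells (chance probability at most 0.065), then a retest showing infection dropped 1.5-fold or more at p below 0.05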. Calls: active = confirmed: knock-down lowers infection; inactive = not picked or not confirmed.
The deposit covers about 22,000 reagents; this is an unselected part of those that have a named target and a result. Of all reagents, 116 (0.52%) got an active call. 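Calls depend on retest data that are not deposited; infection was ranked per plate without normalising between plates; the unit of the infection score is not given.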 Raw values vary from plate to plate and are shown uncorrected. A number with no mark means an inactive call. The numbers tell different reagents against one gene apart. Names joined by + are all predicted targets of the reagent. Not stated in the record: the amount of reagent, the time to read-out.

p130CAS #1
- infection score, replicate 1: 2.02
- infection score, replicate 2: 0.69
- cell count, replicate 1: 5745
- cell count, replicate 2: 5822

p130CAS #2
- infection score, replicate 1: 15.4
- infection score, replicate 2: 8.68
- cell count, replicate 1: 7156
- cell count, replicate 2: 6877

p130CAS #3
- infection score, replicate 1: 2.6
- infection score, replicate 2: 1.56
- cell count, replicate 1: 5855
- cell count, replicate 2: 6103

CG4572
- infection score, replicate 1: 12
- infection score, replicate 2: 2.7
- cell count, replicate 1: 6493
- cell count, replicate 2: 7159

CG11597
- infection score, replicate 1: 9.63
- infection score, replicate 2: 11
- cell count, replicate 1: 6013
- cell count, replicate 2: 6318

nes (nessy)
- infection score, replicate 1: 3.01
- infection score, replicate 2: 9.57
- cell count, replicate 1: 5756
- cell count, replicate 2: 5537

CG17996 + Tsen2
- infection score, replicate 1: 1.81
- infection score, replicate 2: 6.05
- cell count, replicate 1: 938
- cell count, replicate 2: 6231

CG1542 #1
- infection score, replicate 1: 8.08
- infection score, replicate 2: 4.09
- cell count, replicate 1: 5150
- cell count, replicate 2: 5579

CG1542 #2
- infection score, replicate 1: 10.1
- cell count, replicate 1: 1030
- cell count, replicate 2: 415

upd1 (unpaired 1) #1
- infection score, replicate 1: 14.7
- infection score, replicate 2: 14.9
- cell count, replicate 1: 4490
- cell count, replicate 2: 6005

upd1 (unpaired 1) #2
- infection score, replicate 1: 18.3
- infection score, replicate 2: 13.1
- cell count, replicate 1: 5660
- cell count, replicate 2: 4521

ko (knockout) #1
- infection score, replicate 1: 6.09
- infection score, replicate 2: 3.52
- cell count, replicate 1: 6399
- cell count, replicate 2: 6302

ko (knockout) #2
- infection score, replicate 1: 7.95
- infection score, replicate 2: 5.34
- cell count, replicate 1: 6392
- cell count, replicate 2: 6027

CG3526 #1
- infection score, replicate 1: 0.08
- infection score, replicate 2: 0.01
- cell count, replicate 1: 6411
- cell count, replicate 2: 6714

CG3526 #2
- infection score, replicate 2: 15.3
- cell count, replicate 1: 313
- cell count, replicate 2: 5129

CG3526 #3
- infection score, replicate 1: 5.38
- infection score, replicate 2: 3.99
- cell count, replicate 1: 5674
- cell count, replicate 2: 6088

Polr3I (RNA polymerase III subunit I)
- infection score, replicate 1: 3.25
- infection score, replicate 2: 2.51
- cell count, replicate 1: 6179
- cell count, replicate 2: 6142

Psf3 (Partner of Sld Five 3) #1
- infection score, replicate 1: 26.8
- infection score, replicate 2: 22.5
- cell count, replicate 1: 2531
- cell count, replicate 2: 3014

Psf3 (Partner of Sld Five 3) #2
- infection score, replicate 1: 2.18
- infection score, replicate 2: 18
- cell count, replicate 1: 5647
- cell count, replicate 2: 5118

CG7963
- infection score, replicate 1: 2.99
- infection score, replicate 2: 6.45
- cell count, replicate 1: 6585
- cell count, replicate 2: 6826

CG32712
- infection score, replicate 1: 3.32
- infection score, replicate 2: 3.27
- cell count, replicate 1: 6681
- cell count, replicate 2: 6168

CG31778
- infection score, replicate 1: 0.9
- infection score, replicate 2: 0.78
- cell count, replicate 1: 6551
- cell count, replicate 2: 6838

Nprl3 (Nitrogen permease regulator-like 3)
- infection score, replicate 1: 7.24
- infection score, replicate 2: 0.7
- cell count, replicate 1: 6066
- cell count, replicate 2: 286

CG15464 (retired record) #1
- infection score, replicate 1: 2.39
- infection score, replicate 2: 6.06
- cell count, replicate 1: 6809
- cell count, replicate 2: 6982

CG15464 (retired record) #2
- infection score, replicate 1: 3.52
- infection score, replicate 2: 7.8
- cell count, replicate 1: 6646
- cell count, replicate 2: 6182

puml (pummelig)
- infection score, replicate 1: 7.21
- infection score, replicate 2: 17.7
- cell count, replicate 1: 2206
- cell count, replicate 2: 4290

CG34458
- infection score, replicate 1: 4.96
- infection score, replicate 2: 13.3
- cell count, replicate 1: 6875
- cell count, replicate 2: 6382
